The subject of this data set is municipal activated sludge. In words: Biodegradability assessment using the 301 F OECD protocol (standard protocol). The settings on record: for % biodeg (28 d) (Standard protocol): 28 days, 20±2° C., closed BOD flask, without emulsion; for Lag phase: period preceding the beginning of mineralization of the test substance, protocol not given.

Consider `CCCCCCCCCCCCCCCCC(C(O)c1ccccc1)S(=O)(=O)[O-].[Na+]` (stereo not drawn) [PAS-C18], for which the “% biodeg (28 d) (Standard protocol)” value was found to be 57% and the Lag phase turned out to be 3 days.
For `CCCCCCCCCCCCCCCC(OS(=O)(=O)[O-])c1ccccc1.[Na+]` (stereo not drawn) [PAAS-C16], in that order: 55% and 3 days.
Take `CCCCCCCCCCCCCCCCC(C(=O)c1ccccc1)S(=O)(=O)[O-].[Na+]` (stereo not drawn) [PAKS-C18, reference compound]: the “% biodeg (28 d) (Standard protocol)” value is reported as 52% and the Lag phase is recorded as 8 days.

For the origin of these results see patent US20250388535A1, “SULFONATED AND SULFATED ARYL-ALKYL COMPOUNDS USEFUL AS SURFACTANTS” (SPECIALTY OPERATIONS FRANCE, priority 2022, published 2025).
